PubChem BioAssay AID624099 | ICCB-Longwood – 2012

Purpose: 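Human genes that papillomavirus E2 requires to repress the HPV18 LCR promoter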 (primary screen)
Cells: human C33A cervical carcinoma cells (HPV-negative) stably expressing BPV1 E2 and an HPV18 LCR luciferase reporter
Reagent: siRNA pool against human genes, 40 nM
Duration: 72 h
Measured: 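HPV18 LCR reporter light per well, converted to plate-wise z-scores that exclude control wells, and averaged over triplicate plates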
Scale: mean z-score and z-score: higher = stronger reporter signal, weaker E2 silencing
Active means: 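Mean z ≥ 2 together with z ≥ 2 in two or more of the three replicates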
The whole screen tested about 21,000 reagents; below is a random part of them. Over the whole deposit, 497 (2.4%) got an active call. 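Higher z means weaker E2 silencing; only reporter increases were scored, and knock-downs that hurt cell survival may mask genuine repressor factors.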 No sequences are given here.

{"gene":"FZD7","PubChem SID":"SID134310011","mean z-score":0.91,"z-score, replicate A":0.76,"z-score, replicate B":0.93,"z-score, replicate C":1.04,"Call":"inactive"}
{"gene":"SCN3B","PubChem SID":"SID134321074","mean z-score":-0.58,"z-score, replicate A":-0.37,"z-score, replicate B":-0.67,"z-score, replicate C":-0.7,"Call":"inactive"}
{"gene":"PGLYRP4","PubChem SID":"SID134313529","mean z-score":-0.67,"z-score, replicate A":-0.96,"z-score, replicate B":-0.51,"z-score, replicate C":-0.56,"Call":"inactive"}
{"gene":"ASB14","PubChem SID":"SID134317439","mean z-score":-0.07,"z-score, replicate A":-0.44,"z-score, replicate B":-0.19,"z-score, replicate C":0.42,"Call":"inactive"}
{"gene":"COG7","PubChem SID":"SID134319920","mean z-score":0.44,"z-score, replicate A":0.41,"z-score, replicate B":0.52,"z-score, replicate C":0.4,"Call":"inactive"}
{"gene":"LOC389275 (retired record)","PubChem SID":"SID134327502","mean z-score":0.29,"z-score, replicate A":-0.15,"z-score, replicate B":0.31,"z-score, replicate C":0.7,"Call":"inactive"}
{"gene":"LOC400622","PubChem SID":"SID134328746","mean z-score":0.94,"z-score, replicate A":0.83,"z-score, replicate B":1.17,"z-score, replicate C":0.82,"Call":"inactive"}
{"gene":"ADNP2","PubChem SID":"SID134324156","mean z-score":-1.15,"z-score, replicate A":-0.93,"z-score, replicate B":-1.27,"z-score, replicate C":-1.24,"Call":"inactive"}
{"gene":"LINC01566","PubChem SID":"SID134328691","mean z-score":1.39,"z-score, replicate A":1.52,"z-score, replicate B":1.37,"z-score, replicate C":1.28,"Call":"inactive"}
{"gene":"LOC219797 (retired record)","PubChem SID":"SID134326591","mean z-score":1.9,"z-score, replicate A":1.98,"z-score, replicate B":1.45,"z-score, replicate C":2.26,"Call":"inactive"}
{"gene":"AADACL2","PubChem SID":"SID134329522","mean z-score":-1.08,"z-score, replicate A":-1.04,"z-score, replicate B":-1.37,"z-score, replicate C":-0.83,"Call":"inactive"}
{"gene":"LOC402280 (retired record)","PubChem SID":"SID134327731","mean z-score":-0.28,"z-score, replicate A":-0.3,"z-score, replicate B":-0.19,"z-score, replicate C":-0.35,"Call":"inactive"}
{"gene":"CDKL5","PubChem SID":"SID56478872","mean z-score":-1.66,"z-score, replicate A":-1.37,"z-score, replicate B":-1.47,"z-score, replicate C":-2.14,"Call":"inactive"}
{"gene":"EIF4A2","PubChem SID":"SID134317967","mean z-score":0.81,"z-score, replicate A":0.66,"z-score, replicate B":1.15,"z-score, replicate C":0.63,"Call":"inactive"}

Copied from the entries so far (2 entries):
{"gene":"ASB14","PubChem SID":"SID134317439","mean z-score":-0.07,"z-score, replicate A":-0.44,"z-score, replicate B":-0.19,"z-score, replicate C":0.42,"Call":"inactive"}
{"gene":"COG7","PubChem SID":"SID134319920","mean z-score":0.44,"z-score, replicate A":0.41,"z-score, replicate B":0.52,"z-score, replicate C":0.4,"Call":"inactive"}
